# Values quoted from earlier work in patent US8067243B2 (priority 2008, dated 2011).
# Some compounds may have been tested in ways that are not shown here.
# Columns and labels:
# [1] = single fentanyl dose (50 to 100 ug); cited from earlier work
# [2] = fentanyl transdermal patches (25 to 100 ug/hr); cited from earlier work
substance,measurement,setting,value
Norfentanyl,detection in urine following a single fentanyl dose,[1],up to 72 hours
same,urine concentration in chronic pain patients,[2],less than 5730 ng/mL
